PubChem BioAssay AID504761 – Drosophila RNAi Screening Center | 2011
Aim: 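Genome-wide fly cell screen for genes dengue virus requires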 (primary screen). Cells: D.Mel-2 cells from Drosophila. Reagent: long dsRNA against Drosophila genes. Challenge: infection with dengue virus type 2; dose and infection time not stated. Measurement: 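Per well on two replicate plates, imaging gave the percent of cells positive for viral envelope protein, ranked by infection, and a nuclear count of cells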. Reading the numbers: infection score: higher = more virus-infected cells; cell count: higher = more cells in the well. Rule for the call: 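Very low infection ranking in both replicate wells (chance probability at most 0.065), then a retest showing infection dropped 1.5-fold or more at p below 0.05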. Calls: active = confirmed: knock-down lowers infection; inactive = not picked or not confirmed.
The screen tested about 22,000 reagents; this is a random part of those with a known target gene and a result. In the full data, 116 (0.52%) got an active call. 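Calls depend on retest data that are not deposited; infection was ranked per plate without normalising between plates; the unit of the infection score is not given.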 The raw values are shown without normalisation. Further read-outs or replicates are left out here. The record does not give: the amount of reagent, the time to read-out.

no.	gene	dsRNA	infection score, replicate 1	infection score, replicate 2	cell count, replicate 1	Call
1	CG1572 (GeneID 32098)	DRSC19686	3.44	14.6	6402	inactive
2	CG13008 (GeneID 32654)	DRSC19527	5.83	4.52	6312	inactive
3	CG13008 (GeneID 32654)	DRSC19528	0.94	8.26	6599	inactive
4	CG3301 (GeneID 42528)	DRSC15471	4.5	6.41	6181	inactive
5	Dab (GeneID 39866)	DRSC11140	3.66	6.43	6117	inactive
6	Rcd4 (GeneID 34158)	DRSC02597	3.27	3.51	5897	inactive
7	Lip1 (GeneID 43973)	DRSC03364	5.72	4.34	6086	inactive
8	ec (GeneID 31339)	DRSC18658	7.22	6.94	1828	inactive
9	ec (GeneID 31339)	DRSC23902	1.02	0.78	6586	inactive
10	CG6041 (GeneID 31527)	DRSC18396	3.47	22	835	inactive
11	CG6041 (GeneID 31527)	DRSC24234	4.79	2.05	6874	inactive
12	CG14903 (GeneID 42014)	DRSC15024	6.07	3.99	6111	inactive
13	B9d1 (GeneID 41888)	DRSC14993	2	21	6261	inactive
14	CG30053 (GeneID 246419)	DRSC07260	6.64	6.64	6519	inactive
15	slbo (GeneID 37889)	DRSC04716	2.59	19.3	6323	inactive
16	slbo (GeneID 37889)	DRSC27813	12.4	8.46	6087	inactive
17	CG14340 (GeneID 33287)	DRSC00370	5.33	25.5	6225	inactive
18	Mst77F (GeneID 40304)	DRSC11871	8.46	6.44	6180	inactive
19	dyl (GeneID 38531)	DRSC08466	6.54	2.09	6376	inactive
20	dyl (GeneID 38531)	DRSC08467	3.69	5.42	6180	inactive
21	dyl (GeneID 38531)	DRSC24188	2.67	1.18	6555	inactive
22	Gr57a (GeneID 37347)	DRSC06401	5.35	2.29	6319	inactive
23	CG17211 (GeneID 34639)	DRSC02587	10.4	7.36	5654	inactive
24	CG14635 (GeneID 31032)	DRSC17945	9.48	5.76	3303	inactive
25	CG14635 (GeneID 31032)	DRSC29724	14.6	9.29	6368	inactive
26	CG32189 (GeneID 317902)	DRSC09511	0.26	0.19	5776	inactive
27	CG32189 (GeneID 317902)	DRSC26756	2.52	21.4	3538	inactive
28	Grip (GeneID 50391)	DRSC18395	3.62	7.27	6279	inactive
29	Grip (GeneID 50391)	DRSC26610	2.57	3.4	5609	inactive
30	CG18808 (GeneID 59169)	DRSC08539	12.9	0.72	6264	inactive
31	ND-42 (GeneID 42591)	DRSC16754	3.6	3.92	6444	inactive
32	ND-42 (GeneID 42591)	DRSC26843	1.86	2.87	5973	inactive
33	Gr59b (GeneID 117484)	DRSC04179	5.95	4.37	6449	inactive
34	MED4 (GeneID 38799)	DRSC11014	18.6	21.6	5696	inactive
35	MED4 (GeneID 38799)	DRSC25135	7.67	2.73	6388	inactive
36	lbm (GeneID 35623)	DRSC07643	2.38	14.5	6265	inactive
37	CG6462 (GeneID 38681)	DRSC10641	0.7	6.56	6590	inactive
38	CG6462 (GeneID 38681)	DRSC24608	6.83	5.3	5564	inactive
39	Mlc2 (GeneID 43587)	DRSC16741	9.19	4.63	6409	inactive
40	Mlc2 (GeneID 43587)	DRSC28878	29	31	5337	inactive

Part of the list above, set out differently.
gene,dsRNA,"infection score, replicate 1","infection score, replicate 2","cell count, replicate 1",Call
CG30053 (GeneID 246419),DRSC07260,6.64,6.64,6519,inactive
slbo (GeneID 37889),DRSC04716,2.59,19.3,6323,inactive
slbo (GeneID 37889),DRSC27813,12.4,8.46,6087,inactive
CG14340 (GeneID 33287),DRSC00370,5.33,25.5,6225,inactive
Mst77F (GeneID 40304),DRSC11871,8.46,6.44,6180,inactive
dyl (GeneID 38531),DRSC08466,6.54,2.09,6376,inactive
